Results from the NIST ThermoML archive (doi:10.1016/j.jct.2013.10.018).

Assay: xn = mol fraction of the nth substance listed
Details: 101 kPa, Liquid; for speed of sound: Sing-around technique in a fixed-path interferometer; for mass density: Vibrating tube method

CCCCOP(=O)(OCCCC)OCCCC [tributyl phosphate] + CCCCCCCCO
Details	mass density [kg/m3]	speed of sound [m/s]
298.15 K, x1 = 0.016	825.66	1344
298.15 K, x1 = 0.032	829.43	1341
298.15 K, x1 = 0.049	833.45	1337
298.15 K, x1 = 0.1	844.7	1328
298.15 K, x1 = 0.2	864.91	1312
298.15 K, x1 = 0.301	883.29	1300
298.15 K, x1 = 0.398	899.38	1291
298.15 K, x1 = 0.502	914.86	1283
298.15 K, x1 = 0.602	928.59	1277
298.15 K, x1 = 0.704	941.3	1273
298.15 K, x1 = 0.803	952.67	1269
298.15 K, x1 = 0.9	962.97	1267
298.15 K, x1 = 0.919	964.88	1267
298.15 K, x1 = 0.946	967.61	1266
298.15 K, x1 = 0.971	970.09	1266
298.15 K, x1 = 1	972.77	–
303.15 K, x1 = 0.016	822.16	1327
303.15 K, x1 = 0.032	825.92	1324
303.15 K, x1 = 0.049	829.91	1320
303.15 K, x1 = 0.1	841.09	1311
303.15 K, x1 = 0.2	861.18	1295
303.15 K, x1 = 0.301	879.45	1283
303.15 K, x1 = 0.398	895.45	1274
303.15 K, x1 = 0.502	910.85	1266
303.15 K, x1 = 0.602	924.51	1260
303.15 K, x1 = 0.704	937.15	1256
303.15 K, x1 = 0.803	948.47	1252
303.15 K, x1 = 0.9	958.71	1250
303.15 K, x1 = 0.919	960.61	1250
303.15 K, x1 = 0.946	963.32	1249
303.15 K, x1 = 0.971	965.79	1249
303.15 K, x1 = 1	968.46	–
308.15 K, x1 = 0.016	818.64	1310
308.15 K, x1 = 0.032	822.38	1307
308.15 K, x1 = 0.049	826.35	1303
308.15 K, x1 = 0.1	837.47	1294
308.15 K, x1 = 0.2	857.44	1278
308.15 K, x1 = 0.301	875.61	1266
308.15 K, x1 = 0.398	891.51	1257
308.15 K, x1 = 0.502	906.83	1249
308.15 K, x1 = 0.602	920.42	1243
308.15 K, x1 = 0.704	932.99	1239
308.15 K, x1 = 0.803	944.26	1236
308.15 K, x1 = 0.9	954.45	1233
308.15 K, x1 = 0.919	956.34	1233
308.15 K, x1 = 0.946	959.03	1232
308.15 K, x1 = 0.971	961.49	1232
308.15 K, x1 = 1	964.15	–
313.15 K, x1 = 0.016	815.1	1293
313.15 K, x1 = 0.032	818.82	1290
313.15 K, x1 = 0.049	822.77	1286
313.15 K, x1 = 0.1	833.83	1277
313.15 K, x1 = 0.2	853.68	1262
313.15 K, x1 = 0.301	871.75	1249
313.15 K, x1 = 0.398	887.57	1240
313.15 K, x1 = 0.502	902.81	1232
313.15 K, x1 = 0.602	916.33	1226
313.15 K, x1 = 0.704	928.84	1222
313.15 K, x1 = 0.803	940.04	1219
313.15 K, x1 = 0.9	950.19	1216
313.15 K, x1 = 0.919	952.06	1216
313.15 K, x1 = 0.946	954.75	1215
313.15 K, x1 = 0.971	957.19	1215
313.15 K, x1 = 1	959.84	–
318.15 K, x1 = 0.016	811.54	1277
318.15 K, x1 = 0.032	815.24	1273
318.15 K, x1 = 0.049	819.16	1270
318.15 K, x1 = 0.1	830.17	1260
318.15 K, x1 = 0.2	849.91	1245
318.15 K, x1 = 0.301	867.88	1233
318.15 K, x1 = 0.398	883.61	1223
318.15 K, x1 = 0.502	898.78	1216
318.15 K, x1 = 0.602	912.23	1210
318.15 K, x1 = 0.704	924.68	1206
318.15 K, x1 = 0.803	935.82	1202
318.15 K, x1 = 0.9	945.92	1200
318.15 K, x1 = 0.919	947.78	1199
318.15 K, x1 = 0.946	950.45	1199
318.15 K, x1 = 0.971	952.88	1198
318.15 K, x1 = 1	955.52	–
323.15 K, x1 = 0.016	807.94	1260
323.15 K, x1 = 0.032	811.63	1257
323.15 K, x1 = 0.049	815.54	1253
323.15 K, x1 = 0.1	826.49	1244
323.15 K, x1 = 0.2	846.12	1229
323.15 K, x1 = 0.301	864	1216
323.15 K, x1 = 0.398	879.65	1207
323.15 K, x1 = 0.502	894.74	1199
323.15 K, x1 = 0.602	908.12	1194
323.15 K, x1 = 0.704	920.51	1188
323.15 K, x1 = 0.803	931.6	1186
323.15 K, x1 = 0.9	941.65	1183
323.15 K, x1 = 0.919	943.5	1183
323.15 K, x1 = 0.946	946.15	1182
323.15 K, x1 = 0.971	948.58	1182
323.15 K, x1 = 1	951.2	–
